The exact form of at least one protein or probe is not confirmed.
Test system: TnpAREP Sm (TnpASm) (Stenotrophomonas maltophilia)
Assay: EMSA
Settings: 2 uM protein, no divalent metal, EMSA: 12.5 mM Tris pH 7.5, 120 mM NaCl, 1 mM DTT, 20 ug/ml BSA, 0.5 ug poly-dIdC, 7% glycerol, 0.02 uM labelled + 0.5 uM unlabelled oligonucleotide, recombinant protein, protein details: N-terminal Strep-tag, label: 5'-32P, folded or branched DNA

## AGGTCCGGTAGTGCCGGCCGCTGGCCGGCAACCTCATTCAACTTCAGCAACCCAC [Sm3 (55nt) wt REPSm]
  binding result: binds

Reference: article PMC8266576, “TnpAREP and REP sequences dissemination in bacterial genomes: REP recognition determinants”
